Laboratory results as given in PubChem BioAssay (NCATS).
The list shows a part of the results, in another mix than the full data. Records with an inconclusive call do not appear. The source made the active and inactive calls. Calls come from the whole dose curve; as a rule, active = well fitted inhibition curve with a large enough effect; inconclusive = small, poorly fitted or top-dose-only effect; inactive = flat fitted curve, though single readings scatter.

Assays:
Experiment in all cases: qHTS profiling for inhibitors of Plasmodium falciparum proliferation (AID 504749); note: nearly all actives have a fitted effect of over 60% in size;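 for activity, negative = inhibition: 0% = DMSO vehicle and full inhibition = artemisinin control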
CP217 = conditions: P. falciparum in erythrocytes, SYBR Green DNA, 72 h; at 28.7 µM (top of the series) unless noted
Procedure, shortened: (§1)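 P. falciparum-infected erythrocytes (0.3% parasitemia, 2.5% hematocrit) incubated with compound 72 h at 37 C, 5% CO2. Parasite DNA detected by SYBR Green after lysis, overnight at room temperature; normalised to 0.29 uM artemisinin and DMSO.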

CP237 = conditions: P. falciparum in erythrocytes, SYBR Green DNA, 72 h; series mostly up to 28.7 µM
Procedure, shortened: as §1

CP250 = conditions: P. falciparum in erythrocytes, SYBR Green DNA, 72 h; at 28.7 µM (top of the series) unless noted
Procedure, shortened: as §1

CP252 = conditions: P. falciparum in erythrocytes, SYBR Green DNA, 72 h; series mostly up to 28.7 µM
Procedure, shortened: as §1

CP256 = conditions: P. falciparum in erythrocytes, SYBR Green DNA, 72 h; series mostly up to 28.7 µM
Procedure, shortened: as §1

CP260 = conditions: P. falciparum in erythrocytes, SYBR Green DNA, 72 h; series mostly up to 28.7 µM
Procedure, shortened: as §1

CP262 = conditions: P. falciparum in erythrocytes, SYBR Green DNA, 72 h; at 28.7 µM (top of the series) unless noted
Procedure, shortened: as §1

CP215 = conditions: P. falciparum in erythrocytes, SYBR Green DNA, 72 h; at 28.7 µM (top of the series) unless noted
Procedure, shortened: as §1

CP238 = conditions: P. falciparum in erythrocytes, SYBR Green DNA, 72 h; at 28.7 µM (top of the series) unless noted
Procedure, shortened: as §1

CP247 = conditions: P. falciparum in erythrocytes, SYBR Green DNA, 72 h; at 28.7 µM (top of the series) unless noted
Procedure, shortened: as §1
Potency is the fitted concentration of half-maximal effect.

| SMILES | activity, negative = inhibition (CP217) | Potency (CP237) | activity, negative = inhibition (CP250) | Potency (CP252) | Potency (CP256) | Potency (CP260) | activity, negative = inhibition (CP262) | activity, negative = inhibition (CP215) | activity, negative = inhibition (CP238) | activity, negative = inhibition (CP247) |
| --- | --- | --- | --- | --- | --- | --- | --- | --- | --- | --- |
| O=[N+]([O-])OCC(CO[N+](=O)[O-])(CO[N+](=O)[O-])CO[N+](=O)[O-] | inactive: -21.8% | active: 4.47 µM | inactive: -29.1% | active: 11.2 µM | active: 7.08 µM | active: 6.31 µM | inactive: -15.4% | – | – | – |
| O=[N+]([O-])c1cccc([N+](=O)[O-])c1 | inactive: 1.76% | inactive | inactive: 1.13% | inactive | inactive | inactive | inactive: 0.629% | inactive: -0.653% | inactive: 2.61% | inactive: 2.5% |
| C/C1=C2N=C(/C=C3N=C(/C(C)=C4\[N-][C@@](C)([C@H]5N=C1[C@@](C)(CCC(=O)NC[C@H](C)OP(=O)([O-])O[C@@H]1[C@H](O)[C@H](n6cnc7cc(C)c(C)cc76)O[C@@H]1CO)[C@@H]5CC(N)=O)[C@](C)(CC(N)=O)[C@H]4CCC(N)=O)[C@@](C)(CC(N)=O)[C@@H]\3CCC(N)=O)C(C)(C)[C@@H]/2CCC(N)=O.[C-]#N.[Co+3] | inactive: 2.59% [at 12.8 µM] | inactive | inactive: 1.7% [at 12.8 µM] | inactive | inactive | inactive | inactive: -3.99% [at 12.8 µM] | inactive: 0.758% [at 12.8 µM] | inactive: 2.38% [at 12.8 µM] | inactive: 7.77% [at 12.8 µM] |
| CC(C)OP(=O)(F)OC(C)C | inactive: -1.33% | inactive | inactive: -2.38% | inactive | inactive | inactive | inactive: -1.06% | inactive: 1.28% | inactive: 4.31% | inactive: -14.5% |
